According to US12636285B2 (dated 2026):

Tested on: HIV-1
Details: in vivo

Q: How did the “phenotypic resistance conferred by IN L74I at baseline” value turn out when `C[C@H]1CO[C@@H]2Cn3cc(C(=O)NCc4ccc(F)cc4F)c(=O)c(O)c3C(=O)N12` [Cabotegravir, (3S,11aR)-N-[(2,4-difluorophenyl)methyl]-6-hydroxy-3-methyl-5,7-dioxo-2,3,5,7,11,11a-hexahydro[1,3]oxazolo[3,2-a]pyrido[1,2-d]pyrazine-8-carboxamide] was run?
A: Its value is “no detectable phenotypic resistance”.
